Measurements: PubChem BioAssay AID651640 (Broad Institute, 2012)
This is a selection; strong and weak results do not stand in their true shares. Records with an inconclusive call do not appear. Active and inactive are the calls of the source. No stated cut-off is given here; in the data, active means CPE inhibition above about 20% (passing the limit was not always enough); inconclusive means no clear call, values can overlap the other calls; tested in BHK-21 cells.

Test: inhibitors of DENV2 cytopathic effect, primary screen, cell-based, plate reader, single concentration (AID 651640);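 further: 0% = median of neutral control wells and 100% = median of positive control wells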
Conditions: DENV2-infected cells, cytopathic effect rescue, at 9.99 µM, hits give high values
In the case of `O=c1[nH]c2ccccc2n1C1CCN(C(c2cccc3ccccc23)c2nnnn2C2CCCC2)CC1` (stereo not given), the CPE inhibition is reported as inactive: 5.14%. In the case of `COc1cc(C(=O)NCC2(N(C)C)CCCCC2)ccc1OC(F)F`, the CPE inhibition is reported as inactive: -4.3%. With `CCOC(=O)N1CCC(Nc2cccc(C)c2)CC1` the CPE inhibition was inactive: 8.12%. For `O=C(NCC1(N2CCCCC2)CCCCC1)c1ccc(F)cc1`, the CPE inhibition was inactive: 10.2%. With `CCCCn1nnnc1C(c1cc2ccccc2o1)N1CCC(n2c(=O)[nH]c3ccccc32)CC1` (stereo not given) the CPE inhibition was inactive: -2.15%. In the case of `CCCCOc1ccc(C(=O)NCC2(N3CCOCC3)CCCCC2)cc1`, the CPE inhibition is reported as inactive: -4.95%. For `CCOC(=O)N1CCC(Nc2ccc(F)cc2)CC1`, the CPE inhibition was inactive: 2.25%. With `CCOc1ccc(C)cc1CN(CCCl)CCCl` the CPE inhibition was inactive: 5.08%. With `CC(C)(C)n1nnnc1C(c1ccccc1)N1CCC(n2c(=O)[nH]c3ccccc32)CC1` (stereo not given) the CPE inhibition was inactive: -5.36%. For `O=C1CCN(Cc2ccccc2)CC1`, the CPE inhibition was inactive: -12.6%. In the case of `CCOC(=O)N1CCC(Nc2ccc(OC)cc2)CC1`, the CPE inhibition is reported as inactive: 7.26%. With `CCCCn1nnnc1C(c1ccc(OC)cc1)N1CCC(n2c(=O)[nH]c3ccccc32)CC1` (stereo not given) the CPE inhibition was inactive: -6.74%. For `O=C(OC1CN2CCC1CC2)C1c2ccccc2Oc2ccccc21` (stereo not given), the CPE inhibition was inactive: -0.56%. With `O=c1[nH]c2ccccc2n1C1CCN(C(c2cc3ccccc3o2)c2nnnn2C2CCCCC2)CC1` (stereo not given) the CPE inhibition was inactive: 18.7%. In the case of `O=C(NCC1(N2CCCCC2)CCCCC1)c1ccc(Cl)s1`, the CPE inhibition is reported as inactive: 3.28%. With `N#CC1(Nc2ccccc2)CCN(Cc2ccccc2)CC1` the CPE inhibition was inactive: 7.17%. In the case of `COc1ccc(Cl)cc1C(=O)NCC1(N2CCOCC2)CCCCC1`, the CPE inhibition is reported as inactive: 5.97%. For `O=c1[nH]c2ccccc2n1C1CCN(C(c2ccccc2OC(F)(F)F)c2nnnn2C2CCCCC2)CC1` (stereo not given), the CPE inhibition was inactive: -7.8%. With `O=C(NCC1(N2CCCCC2)CCCCC1)c1ccc(Cl)nc1` the CPE inhibition was inactive: -5.79%. In the case of `Cc1cc(C)cc(N(C(=O)c2ccccc2)C2CCN(C(=O)OC(C)(C)C)CC2)c1`, the CPE inhibition is reported as inactive: 3.22%. For `Cc1cccc(NC2(C#N)CCN(Cc3ccccc3)CC2)c1`, the CPE inhibition was inactive: -0.208%. With `O=C(NCC1(N2CCCCC2)CCCCC1)c1ccc(=O)[nH]c1` the CPE inhibition was inactive: -12.4%. With `CCCCn1nnnc1C(c1cccs1)N1CCC(n2c(=O)[nH]c3ccccc32)CC1` (stereo not given) the CPE inhibition was inactive: 1.23%. In the case of `CCCCn1nnnc1C(CC)N1CCC(n2c(=O)[nH]c3ccccc32)CC1` (stereo not given), the CPE inhibition is reported as inactive: -0.874%. For `O=C(NCC1(N2CCCCC2)CCCCC1)c1cccs1`, the CPE inhibition was inactive: 1.05%. For `COc1ccc(C(=O)NCC2(N3CCCCC3)CCCCC2)cc1`, the CPE inhibition was inactive: -4.56%. For `CCC(c1nnnn1C1CCCC1)N1CCC(n2c(=O)[nH]c3ccccc32)CC1` (stereo not given), the CPE inhibition was inactive: 7.77%. For `COc1ccc(C(=O)NCC2(N3CCCCC3)CCCCC2)c(OC)c1OC`, the CPE inhibition was inactive: -4.47%. In the case of `CC(C)(C)OC(=O)N1CCC(N(C(=O)c2ccccc2)c2ccc(F)cc2)CC1`, the CPE inhibition is reported as inactive: 2.93%. With `Cc1ccc(C(=O)NCC2(N(C)C)CCCCC2)o1` the CPE inhibition was inactive: -8.25%. For `CCCOc1ccc(C(=O)NCC2(N(C)C)CCCCC2)cc1OC`, the CPE inhibition was inactive: 1.85%. With `COc1ccc(C(c2nnnn2C2CCCC2)N2CCC(n3c(=O)[nH]c4ccccc43)CC2)cc1` (stereo not given) the CPE inhibition was inactive: -1.79%. With `O=C(NCC1(N2CCCCC2)CCCCC1)c1cncc(Br)c1` the CPE inhibition was inactive: 12.4%. For `CN1CCC(Nc2cccc(F)c2)CC1`, the CPE inhibition was inactive: 11.1%. In the case of `CCCCn1nnnc1C(c1ccnc2ccccc12)N1CCC(n2c(=O)[nH]c3ccccc32)CC1` (stereo not given), the CPE inhibition is reported as inactive: 5.25%. With `COc1cc(OC)c(C(=O)NCC2(N(C)C)CCCCC2)cc1OC` the CPE inhibition was inactive: -1.81%. In the case of `O=C(NCC1(N2CCOCC2)CCCCC1)c1cc(F)c(F)cc1Cl`, the CPE inhibition is reported as inactive: 1.66%. For `CCC(c1nnnn1C(C)(C)C)N1CCC(n2c(=O)[nH]c3ccccc32)CC1` (stereo not given), the CPE inhibition was inactive: -4.18%. For `COc1ccc(CN(CCCl)CCCl)cc1Cl`, the CPE inhibition was inactive: -8.35%. With `CN(C)c1cccc(C(=O)NCC2(N3CCCCC3)CCCCC2)c1` the CPE inhibition was inactive: -0.442%. In the case of `CC(C)c1ccc(NC2CCN(C(=O)OC(C)(C)C)CC2)cc1`, the CPE inhibition is reported as inactive: 0.098%. In the case of `CCCCn1nnnc1C(c1cccc2ccccc12)N1CCC(n2c(=O)[nH]c3ccccc32)CC1` (stereo not given), the CPE inhibition is reported as inactive: -1.21%. In the case of `CN1CCN(CCOC(=O)C(O)(c2ccccc2)c2ccccc2)CC1`, the CPE inhibition is reported as inactive: -12.9%. For `COc1ccc(NC2CCN(C(=O)OC(C)(C)C)CC2)cc1`, the CPE inhibition was inactive: 5.28%. With `CC(C)c1ccc(C(=O)NCC2(N3CCOCC3)CCCCC2)cc1` the CPE inhibition was inactive: 5.23%. With `COc1cc(C(=O)NCC2(N3CCCCC3)CCCCC2)ccc1OC(F)F` the CPE inhibition was inactive: 9.66%. In the case of `O=C(NCC1(N2CCCCC2)CCCCC1)c1cccc(C(F)(F)F)c1`, the CPE inhibition is reported as inactive: 2.33%. In the case of `O=C(NCC1(N2CCCCC2)CCCCC1)c1cccc([N+](=O)[O-])c1`, the CPE inhibition is reported as inactive: 2.05%. With `CSc1ccc(C(=O)NCC2(N3CCOCC3)CCCCC2)cc1` the CPE inhibition was inactive: -6.9%. With `CCN1CCC(Nc2ccc(Cl)cc2)CC1` the CPE inhibition was inactive: 7.21%. For `O=c1[nH]c2ccccc2n1C1CCN(C(c2ccccc2OC(F)(F)F)c2nnnn2C2CCCC2)CC1` (stereo not given), the CPE inhibition was inactive: 10.8%. In the case of `CC(C)(C)n1nnnc1C(c1ccccc1OC(F)(F)F)N1CCC(n2c(=O)[nH]c3ccccc32)CC1` (stereo not given), the CPE inhibition is reported as inactive: -1.45%. With `O=C(NCC1(N2CCCCC2)CCCCC1)c1ccc(OC(F)F)cc1` the CPE inhibition was inactive: 1.64%. With `CC(C)(C)n1nnnc1C(c1cccc2ccccc12)N1CCC(n2c(=O)[nH]c3ccccc32)CC1` (stereo not given) the CPE inhibition was inactive: -11.1%. For `C/C(N)=N\P(=O)(Oc1ccccc1)Oc1ccccc1`, the CPE inhibition was inactive: 2.53%. For `CCCN1CCC(Nc2cc(OC)cc(OC)c2)CC1`, the CPE inhibition was inactive: -1.7%. In the case of `O=c1[nH]c2ccccc2n1C1CCN(C(c2ccccc2)c2nnnn2C2CCCC2)CC1` (stereo not given), the CPE inhibition is reported as inactive: 16.2%. In the case of `Cc1cc(N(CCCl)CCCl)ccc1C=O`, the CPE inhibition is reported as inactive: 2.22%. For `CN(C)C1(CNC(=O)c2cccc(C#N)c2)CCCCC1`, the CPE inhibition was inactive: -0.62%. For `CC(C)(C)OC(=O)N1CCC(N(C(=O)c2ccccc2)c2ccc(Cl)cc2)CC1`, the CPE inhibition was inactive: -0.952%.
